Source: paper PMC7157764, “Avoiding Drug Resistance by Substrate Envelope-Guided Design: Toward Potent and Robust HCV NS3/4A Protease Inhibitors” (mBio, 2020)

System: HCV NS3/4A protease D168A variant
Test: Enzyme inhibition assay, D168A NS3/4A protease variant
Conditions: Ki D168A / Ki GT1a WT, in parentheses in Table S1
Experimental: The HCV GT1a NS3/4A protease gene described in the Bristol Myers Squibb patent was synthesized by GenScript and cloned into a PET28a expression vector ([52]). Cys159 was mutated to a serine residue to prevent disulfide bond formation and facilitate crystallization. The D168A gene was engineered using a site-directed mutagenesis protocol from Stratagene. Protein expression and purification were carried out as previously described ([28]). Briefly, transformed Escherichia coli BL21(DE3) cells were grown in Tris-borate (TB) medium containing 30 μg/ml of kanamycin antibiotic at 37°C. […]
The inner-filter effect (IFE) for the NS3/4A protease substrate was determined using a previously described method ([53]). […] The fluorescence of free 5-FAM was determined by subtracting the first fluorescence endpoint reading from the reading at the second round. IFE corrections were then calculated by dividing the free 5-FAM florescence at each substrate concentration by the free 5-FAM florescence at zero substrate.
Km constants for GT1 and D168A protease were previously determined ([29]). […] The fluorescence output from the substrate cleavage product was measured kinetically using an EnVision plate reader (Perkin-Elmer) with excitation wavelength at 485 nm and emission at 530 nm. […]

In the case of `COC(=O)N[C@H](C(=O)N[C@H]1CCCCC/C=C\[C@@H]2C[C@@]2(C(=O)NS(=O)(=O)C2(C)CC2)NC(=O)[C@@H]2C[C@@H](Oc3nc4cc(OC)ccc4nc3C)CN2C1=O)C1CCCCC1`, the “Fold change of Ki, D168A relative to WT” value is reported as 11 fold.

The structures given here were assigned with low confidence; some may be wrong.
